Data on 2 molecules can be found in patent publication US20110200615A1 (published 2011).

Assay [1] has as its target Botulinum neurotoxin type B, subtype B4 (BoNT/B4) (Clostridium botulinum). In words: flow cytometry; yeast-displayed scFv, soluble toxin.
In assay [2] the target is Botulinum neurotoxin type B, subtype B3 (BoNT/B3) (Clostridium botulinum). The assay is described as above.
Assay [3] concerns the target Botulinum neurotoxin type A, subtype A2 (BoNT/A2, FRI-H1A2) (Clostridium botulinum, UniProt Q45894 2-1296). In words: KinExA flow fluorimetry; IgG in solution. For orientation: A kinetic exclusion assay measures how much of one partner remains free in solution.

B1: 2B29 scFv (yeast displayed) (scFv)
scFv: QVQLQESGPGLVKPSETLSLTCSVSGGSINSGTYYWTWIRQHPGKGLEWIGYIYYSGTTYYNPSLKSRVSMSVDTSKNLFSLKMNSVTAADTALYYCARGNPQYDTSGSYTGLYFDFWGQGTLVTVSSGGGGSGGGGSGGGGSQPVLTQSPSASGTPGQRVTISCSGSSSNLGSNTVSWYQQLPGTAPKLLIYSNNQRPSGVPDRFSGSKSGTSASLAISGLQSEDEADYYCATWDDSLSGGVFGGGTKLTVLG
For orientation: Kd means the equilibrium constant for the complex coming apart. A high value points to weaker binding. As to B1, the results for the Kd in assay [1] and in assay [2] were 1.29 nM and 1.61 nM, respectively.

B2: 4A1.1 IgG (antibody, V domains shown)
VH: QVQLVQSGGGLAQPGGSLRLSCAASGFTFGSYSMNWVRQAPGKGLEWVSSITGNSGLIYYADSVKGRFTVSRDNAKNSLFLHMHSLRADDTAVYYCARDPGWIYSDTSAAGWFDPWGHGTLVTVSS
VL: DVVMTQSPSTLSASVGDRVTITCRASQTISSYLNWYQQKPGKAPKLLIYAASSLQSGVPSRFSGSGSGTDFTLTISSLQPEDFATYYCQQSYDTPRTFGQGTRLEIK
With B2, in assay [3], the dissociation constant Kd is over 1 nM.
